Pooled drug test results. Numbers come from NIAID ChemDB, via PubChem.

Common to all: tests in culture; agent: Mycobacterium avium complex; read-out: MIC

Lines come from different laboratories, so protocols vary. Two numbers with a dash give a range or band. Blank or dashed fields: not listed here.

| compound | conditions | strain | result |
|---|---|---|---|
| CC[C@H]1OC(=O)[C@H](C)[C@@H](O[C@H]2C[C@@](C)(OC)[C@@H](O)[C@H](C)O2)[C@H](C)[C@@H](O[C@@H]2O[C@H](C)C[C@H](N(C)C)[C@H]2O)[C@](C)(OC)C[C@@H](C)C(=O)[C@H](C)[C@@H](O)[C@]1(C)O |  | N-444 | 6.25 µg/mL |
| OC(c1cc(C2CC3CCC2CC3)nc2c(Cl)cc(Cl)cc12)C1CCCCN1 |  |  | 1–2 µg/mL |
| CCCCCCCCO[C@H]1O[C@H](CO[C@H]2O[C@H](CO)[C@@H](O)[C@@H]2O)[C@@H](O)[C@@H]1O |  | NJ211 | >128 µg/mL |
| CC[C@H]1OC(=O)[C@H](C)[C@@H](O[C@H]2C[C@@](C)(OC)[C@@H](O)[C@H](C)O2)[C@H](C)[C@@H](O[C@@H]2O[C@H](C)C[C@H](N(C)C)[C@H]2O)[C@](C)(O)C[C@@H](C)CN(C)[C@H](C)[C@@H](O)[C@]1(C)O |  | SK095 | 32 µg/mL |
| CC[C@H]1OC(=O)[C@H](C)[C@@H](OC2C[C@@](C)(OC)[C@@H](OC(=O)Cc3ccccc3)[C@H](C)O2)[C@H](C)[C@@H](O[C@@H]2O[C@H](C)C[C@H](N(C)C)[C@H]2O)C(C)(O)C[C@@H](C)/C(=N\OCCCOc2ccccc2)[C@H](C)[C@@H](O)[C@]1(C)O |  | 20092 (clarithromycin-resistant) | 3.13 µg/mL |
| C[C@@H]1CN(c2c(F)c(N)c3c(=O)c(C(=O)O)cn(C4CC4)c3c2F)C[C@H](C)N1 |  | Isolate 90-0738 | 2.5 µg/mL |
| CO[C@H]1/C=C/O[C@@]2(C)Oc3c(C)c(O)c4c(O)c(c(/C=N/N5CCN(C6CCCC6)CC5)c(O)c4c3C2=O)NC(=O)/C(C)=C\C=C\[C@H](C)[C@H](O)[C@@H](C)[C@@H](O)[C@@H](C)[C@H](OC(C)=O)[C@@H]1C |  | T | 0.5 µg/mL |
| CCCOc1ccc(OCC)cc1NCc1cnc2nc(N)nc(N)c2c1C |  | NJ211 | 0.25 µg/mL |
| CC[C@H]1OC(=O)[C@H](C)[C@@H](O[C@H]2C[C@@](C)(OC)[C@@H](O)[C@H](C)O2)[C@H](C)[C@@H](O[C@@H]2O[C@H](C)C[C@H](N(C)C)[C@H]2O)[C@](C)(O)C[C@@H](C)/C(=N\OCOCCOC)[C@H](C)[C@@H](O)[C@]1(C)O |  | Isolate 91-0788 | 8 µg/mL |
| CCCCCCCCS(=O)(=O)CC(N)=O |  |  | 25 µg/mL |
| OC(c1cc(-c2ccc(Cl)cc2)nc2c1ccc1ccccc12)C1CCCCN1 |  |  | 1–2 µg/mL |
| Cc1cc(-c2cc3c(cc2F)c(=O)c(C(=O)O)cn3C2CC2)cc(C)n1 |  | LV-2 | 1 µg/mL |
| CO[C@H]1/C=C/O[C@@]2(C)Oc3c(C)c(O)c4c(O)c(c5c(c4c3C2=O)NC2(CCN(CC(C)C)CC2)N=5)=NC(=O)/C(C)=C\C=C\[C@H](C)[C@H](O)[C@@H](C)[C@@H](O)[C@@H](C)[C@H](OC(C)=O)[C@@H]1C |  | D-3 | 0.5 µg/mL |
| CCc1nc(N)nc(N)c1-c1ccc(Cl)cc1 |  | DW6 | 32 µg/mL |
| CCCCCCc1ccc2c(c1)C(=O)c1nc3ccncc3c(=O)n1-2 |  | 19075 | <0.2 µg/mL |
| CCCCCCCCO[C@H]1O[C@H](CO[C@H]2O[C@H](COC(=O)c3ccccc3)[C@@H](OC(=O)c3ccccc3)[C@@H]2OC(=O)c2ccccc2)[C@@H](OCc2ccccc2)[C@@H]1OCc1ccccc1 |  | NJ211 | >128 µg/mL |
| CC[C@H]1OC(=O)[C@H](C)[C@@H](O[C@H]2C[C@@](C)(OC)[C@@H](OC(C)=O)[C@H](C)O2)[C@H](C)[C@@H](O[C@@H]2O[C@H](C)C[C@H](N(C)C)[C@H]2OC(=O)NNCc2ccccc2)C(C)(O)C[C@@H](C)/C(=N\OCCCC2CCCCC2)[C@H](C)[C@@H](O)[C@]1(C)O |  | 20096 (clarithromycin-resistant) | 0.78 µg/mL |
| CC[C@H]1OC(=O)[C@H](C)[C@@H](O[C@H]2C[C@@](C)(OC)[C@@H](O)[C@H](C)O2)[C@H](C)[C@@H](O[C@@H]2O[C@H](C)C[C@H](N(C)C)[C@H]2O)[C@](C)(OC)C[C@@H](C)C(=O)[C@H](C)[C@@H](O)[C@]1(C)O |  | LV-2 | 0.5 µg/mL |
| CC[C@H]1OC(=O)[C@H](C)[C@@H](O[C@H]2C[C@@](C)(OC)[C@@H](OC(C)=O)[C@H](C)O2)[C@H](C)[C@@H](O[C@@H]2O[C@H](C)C[C@H](N(C)C)[C@H]2OC(=O)NNCc2ccccn2)C(C)(O)C[C@@H](C)/C(=N\OCCCC2CCCCC2)[C@H](C)[C@@H](O)[C@]1(C)O |  | 20092 (clarithromycin-resistant) | 0.78 µg/mL |
| CCCCCCCN(CCCCCCC)CC(O)c1cc2ccccc2c2cc(Br)ccc12 |  | 5 clinical isolates | >32 µg/mL |
| CCCCCCCCc1ccc2c(c1)C(=O)c1nc3ccncc3c(=O)n1-2 |  | 19075 | 0.06 µg/mL |
| CCCCN(CCCC)C[C@H](O)c1cc2c(Cl)cc(Cl)cc2c2cc(C(F)(F)F)ccc12 |  | 5 clinical isolates | 1–2 µg/mL |
| CO[C@H]1/C=C/O[C@@]2(C)Oc3c(C)c(O)c4c(=O)c(c5oc6cc(N7CCN(CC(C)C)CC7)cc(=O)c6nc5c4c3=C2O)NC(=O)/C(C)=C\C=C\[C@H](C)[C@H](O)[C@@H](C)[C@@H](O)[C@@H](C)[C@H](OC(C)=O)[C@@H]1C |  | N-444 | 0.06 µg/mL |
| CC1(C)CC(N=c2cc3n(-c4ccc(Cl)c(Cl)c4)c4ccccc4nc-3cc2Nc2ccc(Cl)c(Cl)c2)CC(C)(C)N1 | inside macrophages |  | 0.5 µg/mL |
| CC(=O)NC[C@H]1CN(c2ccc(-c3ccncc3)cc2)C(=O)O1 |  | 108 | 0.8 µg/mL |
| CO[C@H]1/C=C/O[C@@]2(C)Oc3c(C)c(O)c4c(O)c(c(/C=N/N5CCN(C/C=C/c6ccccc6)CC5)c(O)c4c3C2=O)NC(=O)/C(C)=C\C=C\[C@H](C)[C@H](O)[C@@H](C)[C@@H](O)[C@@H](C)[C@H](OC(C)=O)[C@@H]1C |  | N-260 | 0.78 µg/mL |
| CCCCN(CCCC)C[C@@H](O)c1cc2c(Cl)cc(Cl)cc2c2cc(C(F)(F)F)ccc12 |  | 5 clinical isolates | 4–8 µg/mL |
| O=C1c2cc(F)ccc2-n2c1nc1ccncc1c2=O |  | 19075 | 5 µg/mL |
| CCCCCCC(=O)O[C@H]1[C@H](C)[C@@H](O[C@@H]2O[C@H](C)C[C@H](N(C)C)[C@H]2O)C(C)(O)C[C@@H](C)/C(=N\OCCCOc2ccccc2)[C@H](C)[C@@H](O)[C@](C)(O)[C@@H](CC)OC(=O)[C@@H]1C |  | 20092 (clarithromycin-resistant) | 3.13 µg/mL |
| CC[C@@]1(O)OC(=O)[C@H](C)[C@@H](O[C@H]2C[C@@](C)(OC)[C@@H](O)[C@H](C)O2)[C@H](C)[C@@H](O[C@@H]2O[C@H](C)C[C@H](N(C)C)[C@H]2O)[C@](C)(OC)C[C@@H](C)C(=O)[C@H](C)[C@@H](O)[C@]1(C)O |  |  | 8 µg/mL |
| O=C1c2ccccc2-n2c1nc1ccncc1c2=O |  | 19075 | 5 µg/mL |
| O[C@@H](c1cc(C(F)(F)F)nc2c(C(F)(F)F)cccc12)[C@@H]1CCCCN1 |  | 5 clinical isolates | >16 µg/mL |
| CN[C@@H]1[C@@H](O)C(O[C@@H]2[C@@H](O)[C@H](OC3O[C@H](CN)[C@@H](O)[C@H](O)[C@H]3O)[C@@H](N)C[C@H]2NC(=O)[C@@H](O)CN)OC[C@]1(C)O |  | T11 | 12.5 µg/mL |
| O=C(O)c1ccccn1 |  | N-260 | 6000 µg/mL |

4 of the rows above, restated:

CCCCN(CCCC)C[C@H](O)c1cc2c(Cl)cc(Cl)cc2c2cc(C(F)(F)F)ccc12 ; strain: 5 clinical isolates ; result: 1–2 µg/mL
O=C1c2cc(F)ccc2-n2c1nc1ccncc1c2=O ; strain: 19075 ; result: 5 µg/mL
CCCCCCCN(CCCCCCC)CC(O)c1cc2ccccc2c2cc(Br)ccc12 ; strain: 5 clinical isolates ; result: >32 µg/mL
CC[C@H]1OC(=O)[C@H](C)[C@@H](O[C@H]2C[C@@](C)(OC)[C@@H](OC(C)=O)[C@H](C)O2)[C@H](C)[C@@H](O[C@@H]2O[C@H](C)C[C@H](N(C)C)[C@H]2OC(=O)NNCc2ccccc2)C(C)(O)C[C@@H](C)/C(=N\OCCCC2CCCCC2)[C@H](C)[C@@H](O)[C@]1(C)O ; strain: 20096 (clarithromycin-resistant) ; result: 0.78 µg/mL